PubChem BioAssay AID1259414, Drosophila RNAi Screening Center, 2018

Assay: 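Host factors increasing or decreasing Wolbachia levels in cultured fly cells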 (primary screen)
Cells: Drosophila JW18 cells infected with Wolbachia
Knock-down reagent: long dsRNA against Drosophila genes, 0.25 µg dsRNA per well of a 384-well plate
Timing: 5 days
Treatment: cells persistently infected with Wolbachia before knock-down; no added drug
Measured: 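Automated imaging of bacterial rRNA staining divided by host cell count, reported as plate-normalised robust z-score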
Direction: Wolbachia per cell robust z: higher = more Wolbachia per host cell than the plate typical
Rule for the call: 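Hit when robust z is 1.5 or more, or -1.5 or less, in at least two of three replicates; excludes dsRNAs with several or no targets, genes not expressed in JW18 and well A1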
In all, the deposit lists about 24,000 reagents; shown is a random part of those with a known target gene and a result. Of all reagents, about 1,210 (5%) got an active call. 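Inactive calls also include excluded dsRNAs with several or no targets, genes unexpressed in JW18, and well A1, regardless of score.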 Reagents against one gene are numbered here.

| gene knocked down | dsRNA no. | Wolbachia per cell robust z, rep 1 | Wolbachia per cell robust z, rep 2 | Wolbachia per cell robust z, rep 3 | Call |
| --- | --- | --- | --- | --- | --- |
| CG6055 | 1 | 1.05 | 0.521 | 0.282 | inactive |
| CG10943 | 1 | 0.00297 | -0.306 | -0.791 | inactive |
| CG10943 | 2 | -1.1 | -0.275 | 0.431 | inactive |
| 14-3-3epsilon | 1 | -1.23 | -1.17 | 0.5 | inactive |
| 14-3-3epsilon | 2 | 0.944 | -2.23 | -0.129 | inactive |
| CG14742 | 1 | -1.09 | 0.363 | 0.495 | inactive |
| Zasp66 | 1 | 0.0728 | 0.731 | 0.623 | inactive |
| Zasp66 | 2 | -0.481 | -8.61 | 0.108 | inactive |
| Zasp66 | 3 | -2.74 | 1.6 | 0.983 | inactive |
| CG4839 | 1 | -0.135 | -0.0358 | 0.129 | inactive |
| CG4839 | 2 | 1.19 | 0.71 | 1.05 | inactive |
| Prosbeta2R2 | 1 | 0.828 | -1.72 | 1.19 | inactive |
| Con | 1 | -3.77 | 0.592 | -5.32 | active |
| Taf6 | 1 | 0.487 | -0.395 | 0.774 | inactive |
| Rpn12R | 1 | -0.101 | 0.398 | -0.597 | inactive |
| Hexo2 | 1 | -0.787 | -3.19 | -1.37 | inactive |
| CG12971 | 1 | -0.24 | -0.0513 | 1.01 | inactive |
| CG12971 | 2 | -0.65 | 0.706 | 1.09 | inactive |
| CG12078 | 1 | 0.376 | 1.52 | 0.673 | inactive |
| CG12069 | 1 | 0.348 | 0.0183 | 1.57 | inactive |
| CG12069 | 2 | 0.654 | -0.21 | 0.672 | inactive |
| CG12069 | 3 | -1.58 | -0.517 | -0.312 | inactive |
| CG8507 | 1 | 0.704 | -0.232 | -0.558 | inactive |
| Sec3 | 1 | -0.624 | 2.05 | -0.095 | inactive |
| Qsox4 | 1 | -0.502 | -1.56 | 1.11 | inactive |
| CG7567 | 1 | -5.32 | -0.801 | -2.53 | inactive |
| CG34244 | 1 | -0.27 | -0.356 | -1.67 | inactive |
| DopEcR | 1 | 0.625 | 0.052 | -0.859 | inactive |
| Pgam5 | 1 | -0.176 | -0.105 | 0.209 | inactive |
| Pgam5 | 2 | -0.727 | 0.475 | 0.0253 | inactive |
| CG11811 | 1 | 0.408 | -4.95 | -0.204 | inactive |
| CG13690 | 1 | -4.7 | 0.39 | 0.0185 | inactive |
| CG8117 | 1 | 0.284 | 0.801 | 0.698 | inactive |
| CG8117 | 2 | 0.116 | 1.94 | 1.05 | inactive |
| Brms1 | 1 | 0.299 | 0.529 | 0.966 | inactive |
| CG5265 | 1 | -0.207 | -1.38 | -0.993 | inactive |
| Ror | 1 | 0.661 | 1.39 | -2.35 | inactive |
| frac | 1 | 0.851 | 0.848 | 0.814 | inactive |
| frac | 2 | -7.29 | -1.06 | -0.5 | inactive |
| Patsas | 1 | 1.6 | -1.38 | -5.09 | inactive |
| Patsas | 2 | 1.43 | 2.11 | 0.893 | inactive |
| Poxn | 1 | 0.0514 | -0.00176 | -0.00361 | inactive |
| Poxn | 2 | -3.44 | -3.67 | 0.469 | inactive |
| Poxn | 3 | -0.584 | -1.06 | 0.227 | inactive |
| sbb | 1 | 0.527 | 0.665 | 1.04 | inactive |
| sbb | 2 | 0.957 | 0.302 | 0.789 | inactive |
| sbb | 3 | 0.507 | 1.08 | 0.531 | inactive |
| sbb | 4 | 0.264 | -0.531 | -0.39 | inactive |

Ordered by “Wolbachia per cell robust z, rep 1” (lowest first): some entries from above.
| gene knocked down | dsRNA no. | Wolbachia per cell robust z, rep 1 | Wolbachia per cell robust z, rep 2 | Wolbachia per cell robust z, rep 3 | Call |
| --- | --- | --- | --- | --- | --- |
| CG7567 | 1 | -5.32 | -0.801 | -2.53 | inactive |
| Sec3 | 1 | -0.624 | 2.05 | -0.095 | inactive |
| Qsox4 | 1 | -0.502 | -1.56 | 1.11 | inactive |
| CG8507 | 1 | 0.704 | -0.232 | -0.558 | inactive |
